From US8895613B2 (priority 2013, dated 2014) come the findings set out here.

The target of experiment [1] is neuraminidase of influenza virus B/Pert/211/2001 (197D) (Influenza B virus, UniProt Q3S340). Format: biochemical. To be noted: read-out: IC50, nM (number of experiments).
Experiment [2] has as its system highly pathogenic strain Ia/duck/MN/1525/81 (H5N1). Format: cell-based, influenza virus Ia/duck/MN/1525/81 (H5N1) in MDCK cells.

Regarding `CCC(CC)O[C@@H]1C=C(C(=O)O)C[C@H](N)[C@H]1NC(C)=O` [A2, (3R,4R,5S)-5-amino-4-acetamido-3-(pentan-3-yloxy)cyclohex-1-enecarboxylic acid, reference compound], the IC50 in experiment [1] turned out to be 39.2 nM. Also, the “IC50(Zan)/IC50(1.1)” value in experiment [2] is 24.2.

As usually defined, the IC50 is the concentration needed to halve the response being measured.
